# Article PMC8640510 (Cell Death and Differentiation, 2021)
# Molecular target: SARS-CoV NSP14/10 complex (ExoN activity) (Severe acute respiratory syndrome coronavirus, UniProt P0C6X7)
# Assay: biochemical
smiles,measurement,value
"CC(C)=CCc1c(O)ccc(C(=O)/C=C/c2ccc(O)cc2)c1O [#96, Isobavachalcone]",IC50,15 µM
